Source: PubChem BioAssay AID624099 (ICCB-Longwood, 2012)
The whole screen tested about 21,000 reagents; below is an unselected part. 497 of all reagents (2.4%) were called active. 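Higher z means weaker E2 silencing; only reporter increases were scored, and knock-downs that hurt cell survival may mask genuine repressor factors.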 A number with no mark means an inactive call. The numbers tell different reagents against one gene apart. No sequences are given here.

Test: 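Knock-downs relieving repression by E2 of an HPV18 LCR luciferase reporter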 (primary screen)
Cells: human C33A cervical carcinoma cells (HPV-negative) stably expressing BPV1 E2 and an HPV18 LCR luciferase reporter
Reagent: siRNA pool against human genes, 40 nM
Timing: 72 h
Measurement: 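HPV18 LCR reporter light per well, converted to plate-wise z-scores that exclude control wells, and averaged over triplicate plates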
Reading the numbers: mean z-score and z-score: higher = stronger reporter signal, weaker E2 silencing
Active means: 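Mean z ≥ 2 together with z ≥ 2 in two or more of the three replicates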

| gene knocked down | reagent no. | mean z-score | z-score, replicate A | z-score, replicate B | z-score, replicate C |
| --- | --- | --- | --- | --- | --- |
| LINGO1 | 1 | 0.99 | 0.66 | 1.02 | 1.28 |
| MRGPRG-AS1 | 1 | 0.59 | 0.46 | 0.74 | 0.57 |
| BIN2 | 1 | 0.04 | 0.25 | 0 | -0.13 |
| CD72 | 1 | 1.03 | 0.79 | 1.18 | 1.12 |
| TEX101 | 1 | 1.02 | 0.9 | 1.01 | 1.16 |
| FAM180B | 1 | 1.39 | 0.75 | 2.38 | 1.04 |
| SLC35F1 | 1 | 1.96 | 1.68 | 2.25 | 2.01 |
| FAM177A1 | 1 | -1.46 | -1.32 | -1.48 | -1.57 |
| INPP5K | 1 | 0.02 | 0.04 | -0.02 | 0.05 |
| MRPS35 | 1 | -1.05 | -1.28 | -1.28 | -0.57 |
| TNPO2 | 1 | – | -0.3 | -0.53 | – |
| DSC3 | 1 | -0.56 | -0.23 | -0.66 | -0.79 |
| ATP6V1H | 1 | -0.13 | -0.15 | -0.13 | -0.12 |
| CAPN9 | 1 | -0.27 | -0.19 | -0.29 | -0.35 |
| AP5B1 | 1 | 1.2 | 1.38 | 0.9 | 1.31 |
| LOC341720 (retired record) | 1 | 0.19 | 0.26 | 0.2 | 0.1 |
| OVCA2 | 1 | -0.49 | -0.74 | -0.35 | -0.39 |
| AQP8 | 1 | -0.5 | -0.31 | -0.64 | -0.54 |
| LRRC37B | 1 | 2.41 (active) | 2.23 | 2.44 | 2.57 |
| BLTP2 | 1 | 0.38 | 0.37 | 0.28 | 0.48 |
| RPS10 | 1 | -2.24 | -2.14 | -2.27 | -2.33 |
| NKX2-8 | 1 | 0 | 0.19 | -0.19 | -0.02 |
| CRIP2 | 1 | -1.13 | -1.02 | -1.34 | -1.02 |
| PPP4R3A | 1 | -0.37 | -0.38 | -0.3 | -0.43 |

The list goes on (7 carried over from the part before).
| gene knocked down | reagent no. | mean z-score | z-score, replicate A | z-score, replicate B | z-score, replicate C |
| --- | --- | --- | --- | --- | --- |
| AQP8 | 1 | -0.5 | -0.31 | -0.64 | -0.54 |
| LRRC37B | 1 | 2.41 (active) | 2.23 | 2.44 | 2.57 |
| BLTP2 | 1 | 0.38 | 0.37 | 0.28 | 0.48 |
| RPS10 | 1 | -2.24 | -2.14 | -2.27 | -2.33 |
| NKX2-8 | 1 | 0 | 0.19 | -0.19 | -0.02 |
| CRIP2 | 1 | -1.13 | -1.02 | -1.34 | -1.02 |
| PPP4R3A | 1 | -0.37 | -0.38 | -0.3 | -0.43 |
| RNASE7 | 1 | -0.63 | -0.48 | -0.46 | -0.97 |
| NOL9 | 1 | -0.19 | -0.61 | -0.15 | 0.18 |
| LGSN | 1 | 2.23 (active) | 2.12 | 2.18 | 2.4 |
| SPX | 1 | 0.15 | -0.06 | 0.35 | 0.15 |
| FRS2 | 1 | -1.37 | -1.34 | -1.42 | -1.35 |
| LOC400856 (retired record) | 1 | 0.63 | 0.39 | 0.57 | 0.92 |
| LARS1 | 1 | -0.07 | 0.1 | -0.29 | -0.02 |
| PABPC1P4 | 1 | -0.14 | -0.3 | -0.16 | 0.05 |
| HSD17B4 | 1 | 0.87 | 0.93 | 0.89 | 0.8 |
| CIMAP1C | 1 | 0.07 | 0.53 | -0.04 | -0.28 |
| ZNF189 | 1 | -1.2 | -1.22 | -1.17 | -1.22 |
| ARHGAP31 | 1 | 0.53 | 0.47 | 0.66 | 0.46 |
| ABCA3 | 1 | 1.54 | 1.56 | 1.51 | 1.55 |
| LOC730133 (retired record) | 1 | 0.89 | 1.02 | 0.62 | 1.04 |
| IFT38 | 1 | 0.77 | 0.55 | 0.56 | 1.21 |
| WWC2 | 1 | 2.04 (active) | 1.63 | 2.3 | 2.19 |
| ZNF596 | 1 | -1.04 | -0.96 | -1.37 | -0.78 |
| FUT6 | 1 | -0.05 | -0.04 | -0.5 | 0.4 |
| NUP62 | 1 | 0.45 | 0.56 | 0.36 | 0.43 |
| DACH2 | 1 | 1.87 | 1.55 | 2.13 | 1.95 |
| CLPTM1 | 1 | 0.48 | 0.57 | 0.33 | 0.54 |
| KIR2DL4 | 1 | -1.23 | -1.13 | -1.35 | -1.2 |
| ST8SIA6 | 1 | 0.29 | 0.1 | 0.35 | 0.4 |
| BEST4 | 1 | 0.57 | 0.25 | 0.53 | 0.94 |
| RASGRP2 | 1 | -0.03 | 0.09 | -0.28 | 0.1 |
| CNTNAP5 | 1 | 0.2 | 0.53 | 0.13 | -0.05 |
| SCRN1 | 1 | 0.62 | 0.82 | 0.48 | 0.56 |
| NAF1 | 1 | 0.46 | 0.68 | 0.19 | 0.52 |
| VAMP1 | 1 | 0.1 | 0.2 | 0.01 | 0.1 |
| POPDC3 | 1 | 0.91 | 0.74 | 1.35 | 0.63 |
| BARHL1 | 1 | 0.03 | 0.05 | -0.1 | 0.14 |
| STK40 | 1 | 0.7 | 0.25 | 0.88 | 0.96 |
| TCP10L | 1 | 0.44 | 0.33 | 0.39 | 0.61 |
| TCP10L | 2 | -1.42 | -1.78 | -1.78 | -0.69 |
| SFRP1 | 1 | -0.44 | -0.49 | -0.5 | -0.32 |
| CES5A | 1 | -0.23 | -0.23 | -0.12 | -0.32 |
| RASD1 | 1 | -0.2 | -0.49 | -0.25 | 0.16 |
| MVK | 1 | -0.2 | -0.2 | -0.36 | -0.04 |
| CTDNEP1 | 1 | 2.02 (active) | 1.69 | 2.23 | 2.15 |
| RPL7L1 | 1 | 0.45 | 0.1 | 1.29 | -0.04 |
| AMOTL2 | 1 | -0.57 | -0.27 | -0.79 | -0.65 |
| LOC389318 (retired record) | 1 | 1.05 | 0.87 | 1.1 | 1.17 |
| TOX3 | 1 | 0.17 | -0.17 | 0.16 | 0.53 |
| NDUFB1 | 1 | -2.61 | -2.81 | -2.73 | -2.29 |
| LTV1 | 1 | -0.38 | -0.27 | -0.48 | -0.41 |
| ZNF3 | 1 | 0.51 | 0.22 | 0.51 | 0.78 |
| SLC6A2 | 1 | 0.92 | 0.86 | 0.77 | 1.13 |
| SLC2A13 | 1 | -0.31 | 0.02 | -0.22 | -0.73 |
| HSD11B2 | 1 | 0.21 | 0.43 | 0.31 | -0.1 |
